Measured values from several laboratories, pooled; numbers as filed in NIAID ChemDB.

All rows: cytotoxicity tests; cells: MT-4; read-out: CC50

Lines come from different laboratories, so protocols vary. Blank or dashed fields: not listed here. CCn: concentration that lowers growth or viability of the cells by n%.

| smiles | method | value |
|---|---|---|
| Cc1cn([C@H]2C[C@H](N=[N+]=[N-])[C@@H](CO)O2)c(=O)[nH]c1=O | MTT | 167 µg/mL |
| CCOC(=O)c1[nH]c2ccc(Cl)cc2c1SCC1CCCCC1 | microscopy | >10 µM |
| O=C(Nc1ccc(S(=O)(=O)Nc2ccccc2Br)cc1)c1cc(O)c(O)c(O)c1 |  | >25 µM |
| COc1ccccc1CCNC(=S)Nc1nccs1 |  | 102 µM |
| CC(=O)Nc1cnc(Oc2c(C)cc(C)cc2C)nc1Nc1ccc(C#N)cc1 | MTT | >322 µM |
| COc1cc(-c2nnc(Sc3nc(Nc4ccc(C#N)cc4)nc(Oc4cc(=O)n(C)c5ccccc45)n3)o2)cc(OC)c1OC | MTT | 65.13 µg/mL |
| S=C(NCCc1ccccc1)Nc1ccn[nH]1 |  | 122 µM |
| CCOCn1c(Cc2ccccc2)c(C(C)C)c(=O)[nH]c1=O | MTT | >100 µM |
| CC1=C(C(=O)Nc2cccc(C)c2)C2=NN=C(N)C2C(=O)N1 | MTT | 68.3 µg/mL |
| CCOC(=O)c1ccc(NC(=O)COc2cccnc2-c2cccc3ccccc23)c(Br)c1 | MTT / absorbance | 149 µM |
| COC(=O)/C=C1\S/C(=N/N=C/c2ccc(OC)cc2)NC1=O | MTT | 72.1 µM |
| N#Cc1ccc(Nc2nc(Oc3c(Cl)cc(Cl)cc3Cl)ncc2N)cc1 | MTT | 26 µM |
| CC(=O)Oc1cc(C(=O)Nc2ccc(S(=O)(=O)Nc3cccc(Cl)c3F)cc2)cc(OC(C)=O)c1OC(C)=O |  | >25 µM |
| Cc1cn([C@H]2C=CC[C@@H](CO)O2)c(=O)[nH]c1=O |  | >100 µM |
| COC(=O)/C=C1\S/C(=N/N=C/c2cccc(OC)c2)NC1=O | MTT | 61.3 µM |
| Cn1c(=O)cc(Oc2nc(Nc3ccc(C#N)cc3)nc(Nc3nc4ccccc4s3)n2)c2ccccc21 | MTT | 82.93 µg/mL |
| Cc1cc(C)c(Oc2ncc(NC(=O)C(F)(F)F)c(Nc3ccc(C#N)cc3)n2)c(C)c1 | MTT | 242 µM |
| O=c1ccn([C@@H]2CO[C@@H](CO)S2)c(=O)[nH]1 |  | >100 µg/mL |
| CC1=C[C@H](Cn2cnc3c(N)ncnc32)C[C@@H]1CO | MTT | >100 µg/mL |
| CC(C)CCC[C@@H](C)[C@H]1CC[C@H]2[C@@H]3[C@@H](O)C=C4C[C@@H](O)CC[C@]4(C)[C@H]3CC[C@]12C |  | 23 µM |
| Cc1cn([C@H]2C[C@H](N=[N+]=[N-])[C@@H](CO)O2)c(=O)[nH]c1=O | MTT / absorbance | >7.48 µM |
| Cc1csc(NC(=S)NCCc2ccccc2)n1 |  | >360 µM |
| CC1=C(C(=O)Nc2cccc([N+](=O)[O-])c2)C2=NN=C(N)C2C(=O)N1 | MTT | ≥101 µg/mL |
| Nc1nc(=O)n([C@H]2CO[C@@H](CO)S2)cc1F |  | >100 µg/mL |
| CC1=C(C(=O)Nc2ccc(F)cc2)C2=NN=C(N)C2C(=O)N1 | MTT | 89 µg/mL |
| CCN1C(=O)c2cccn2S(=O)(=O)c2cc(Cl)ccc21 |  | >200 µM |
| Cc1cn([C@@H]2C=CC[C@@H](CO)O2)c(=O)[nH]c1=O |  | >100 µM |
| CCOC(=O)CNc1nc(NC(=O)Nc2ccc(Br)cc2)nc(Oc2cc(=O)oc3ccccc23)n1 | MTT | >125 µg/mL |
| CCOCn1c(Cc2cccc(Cc3c(CC)c(=O)[nH]c(=O)n3COCC)c2)c(CC)c(=O)[nH]c1=O | MTT | >100 µM |
| CCOC(=O)c1cccn1S(=O)(=O)c1cc(Cl)ccc1NS(=O)(=O)c1ccc(Cl)cc1 |  | 17 µM |
| Nc1ccn([C@H]2CO[C@@H](CO)S2)c(=O)n1 |  | 10 µg/mL |
| O=C(Nc1ccc(S(=O)(=O)Nc2cccc(Cl)c2F)cc1)c1cc(O)c(O)c(O)c1 |  | >25 µM |
| CCOC(=O)CNc1nc(NC(=O)Nc2ccc(OCC)cc2)nc(Oc2cc(=O)oc3ccccc23)n1 | MTT | >125 µg/mL |
| CCOC(=O)c1[nH]c2ccc(Cl)cc2c1S(=O)(=O)C1CCCC1 | microscopy | >10 µM |
| CC1=C[C@H](Cn2cnc3c(NC4CC4)ncnc32)C[C@@H]1CO | MTT | >100 µg/mL |
| Nc1ccn([C@H]2CC=C[C@@H](CO)O2)c(=O)n1 |  | >100 µM |
| CC1OC(Oc2c(-c3cc(O)c(O)c(O)c3)oc3cc(O)cc(O)c3c2=O)C(O)C(O)C1O | MTT | >300 µM |
| COC(=O)/C=C1\S/C(=N/N=C/c2cc([N+](=O)[O-])ccc2O)NC1=O | MTT | 0.088 µM |
| Cc1nc2c(c(C)c(C)n2CC(=O)O)c(-c2ccc(Cl)cc2)c1[C@H](OC(C)(C)C)C(=O)O | MTT | >217.9 µM |
| O=C(O)c1ccc(Nc2ccc3ccccc3c2O)cc1 | MTT | 70.07 µM |
| O=S(=O)(O)O.O=S(=O)(O)O.O=S(=O)(O)O.O=S(=O)(O)O.O=S(=O)(O)O.O=S(=O)(O)O.OC[C@H]1O[C@@H]2O[C@H]3[C@H](O)[C@@H](O)[C@@H](O[C@H]4[C@H](O)[C@@H](O)[C@@H](O[C@H]5[C@H](O)[C@@H](O)[C@@H](O[C@H]6[C@H](O)[C@@H](O)[C@@H](O[C@H]7[C@H](O)[C@@H](O)[C@@H](O[C@H]1[C@H](O)[C@H]2O)O[C@@H]7CO)O[C@@H]6CO)O[C@@H]5CO)O[C@@H]4CO)O[C@@H]3CO |  | >2500 µg/mL |
| COC(=O)/C=C1\S/C(=N/N=C/c2ccc(Cl)cc2)NC1=O | MTT | 4.23 µM |
| CCOC(=O)c1cccn1S(=O)(=O)c1cc(Cl)ccc1NC(=O)CN1CCN(C(C)=O)CC1 |  | 135 µM |
| Cn1c(=O)cc(Oc2nc(Nc3ccc(C#N)cc3)nc(Sc3nnc(-c4ccncc4)o3)n2)c2ccccc21 | MTT | 68.75 µg/mL |
| CC(=O)Oc1ccc(/C=C/C(=O)Nc2ccc(S(=O)(=O)Nc3ccc(F)c(F)c3)cc2)cc1OC(C)=O |  | 20 µM |
| NS(=O)(=O)c1ccc(NC(=O)COc2cccnc2-c2cccc3ccccc23)cc1 | MTT / absorbance | 143 µM |
| CCc1c(Cc2cccc(Cc3nc(SC(C)C)[nH]c(=O)c3CC)c2)nc(SC(C)C)nc1OC(C)C | MTT | 43 µM |
| Cc1nc2c(c(C)c(C)n2Cc2cocn2)c(-c2ccc(Cl)cc2)c1[C@H](OC(C)(C)C)C(=O)O | MTT | 64.73 µM |
| CC1=C(C(=O)Nc2ccccc2)C2=NN=C(N)C2C(=O)N1 | MTT | ≥94.7 µg/mL |
| NC(=O)c1ccc(NC(=O)COc2cccnc2-c2cccc3ccccc23)cc1 | MTT / absorbance | 29.4 µM |
| O=C(/C=C/c1ccc(O)c(O)c1)Nc1ccc(S(=O)(=O)Nc2ccccc2Br)cc1 |  | 49 µM |
| CCOc1ccc(NC(=S)Nc2nc(NCCc3ccc(OC)c(OC)c3)nc(Oc3cc(=O)oc4ccccc34)n2)cc1 | MTT | 66.05 µg/mL |
| Cc1cn([C@H]2C[C@H](N=[N+]=[N-])[C@@H](CO)O2)c(=O)[nH]c1=O | MTT | 7.6 µg/mL |
| CCOC(=O)c1[nH]c2ccc(Cl)cc2c1SCC(F)(F)F | microscopy | >10 µM |
| N#Cc1ccc(Nc2nc(Oc3c(Br)cc(Br)cc3Br)ncc2[N+](=O)[O-])cc1 | MTT | 20 µM |
| Cc1cn([C@@H]2CO[C@@H](CO)S2)c(=O)[nH]c1=O |  | >100 µg/mL |
| CCc1c(Cc2cccc(Cc3nc(SC(C)C)[nH]c(=O)c3CC)c2)nc(SC(C)C)[nH]c1=O | MTT | 36 µM |
| COc1ccc(CCNc2nc(NC(=O)Nc3ccccc3Cl)nc(Oc3cc(=O)oc4ccccc34)n2)cc1OC | MTT | 51.15 µg/mL |
| COc1ccc(NC(=O)C2=C(C)NC(=O)C3C(N)=NN=C23)cc1 | MTT | 73.8 µg/mL |
| Cc1cc(Br)cc(C)c1Oc1ncc([N+](=O)[O-])c(Nc2ccc(C#N)cc2)n1 | MTT | ≥202 µM |
| Cc1nc2c(c(C)c(C)n2Cc2ccncc2)c(-c2ccc(Cl)cc2)c1C(OC(C)(C)C)C(=O)O | MTT | >203 µM |
| CCOC(=O)c1cccn1S(=O)(=O)c1ccc(NC=O)cc1 |  | 114 µM |
| CCc1c(Cc2cccc(Cc3nc(SC)[nH]c(=O)c3CC)c2)nc(SC)[nH]c1=O | MTT | >100 µM |
| N#Cc1csc(NC(=S)NCCc2c(F)cccc2F)n1 |  | 10 µM |
| N#Cc1cc(Cl)cc(Oc2cc(OCc3[nH]nc4ccncc34)ccc2Cl)c1 |  | >8.3 µM |
| O=c1ccn([C@H]2CC=C[C@@H](CO)O2)c(=O)[nH]1 |  | >100 µM |
| CCOC(=O)c1[nH]c2ccc(Cl)cc2c1S(=O)(=O)CCCC(F)(F)F | microscopy | >10 µM |
| CCc1c(Cc2cccc(Cc3nc(N4CCCCC4)[nH]c(=O)c3CC)c2)nc(N2CCCCC2)[nH]c1=O | MTT | 75 µM |
| Cc1ccc2nc(Nc3nc(Nc4ccc(C#N)cc4)nc(Oc4cc(=O)n(C)c5ccccc45)n3)sc2c1 | MTT | 3.88 µg/mL |
| COC(=O)/C=C1\S/C(=N/N=C/c2ccccc2Br)NC1=O | MTT | 13.45 µM |

The last 4 rows once more:

smiles,method,value
CCOC(=O)c1[nH]c2ccc(Cl)cc2c1S(=O)(=O)CCCC(F)(F)F,microscopy,>10 µM
CCc1c(Cc2cccc(Cc3nc(N4CCCCC4)[nH]c(=O)c3CC)c2)nc(N2CCCCC2)[nH]c1=O,MTT,75 µM
Cc1ccc2nc(Nc3nc(Nc4ccc(C#N)cc4)nc(Oc4cc(=O)n(C)c5ccccc45)n3)sc2c1,MTT,3.88 µg/mL
COC(=O)/C=C1\S/C(=N/N=C/c2ccccc2Br)NC1=O,MTT,13.45 µM